Test results: PMC3062530, “A Novel Mechanism of Programmed Cell Death in Bacteria by Toxin–Antitoxin Systems Corrupts Peptidoglycan Synthesis” (PLoS Biology, 2011)

Tests used:
epsilon/zeta complex [1] = biological target: T1, epsilon/zeta complex (Streptococcus pyogenes, UniProt Q54944); assay: X-ray crystal structure, […] Å (crystals soaked with […] UNAG); settings: UNAG in deep cleft of zeta toxin; antitoxin-bound complex
epsilon/zeta complex [2] = biological target: T1, epsilon/zeta complex; assay: anion exchange chromatography of kinase reaction; settings: phosphoryl donor; 1 mM ATP, 0.25 mM UNAG, 5 mM MgCl2, 25 °C, pH 7.5, 24 h; antitoxin present
PezTΔC242 = PezTΔC242 (Streptococcus pneumoniae, UniProt Q97QZ1); assay: anion exchange chromatography of kinase reaction; settings: phosphoryl donor; 1 mM ATP, 0.25 mM UNAG, 5 mM MgCl2, 25 °C, pH 7.5

| SMILES | X-ray crystal structure, 2.7 Å (crystals soaked with 10 mM UNAG) (epsilon/zeta complex [1]) | anion exchange chromatography of kinase reaction (epsilon/zeta complex [2]) | anion exchange chromatography of kinase reaction (PezTΔC242) |
| --- | --- | --- | --- |
| CC(=O)N[C@H]1[C@@H](OP(=O)(O)OP(=O)(O)OC[C@H]2O[C@@H](n3ccc(=O)[nH]c3=O)[C@H](O)[C@@H]2O)O[C@H](CO)[C@@H](O)[C@@H]1O [UNAG] | crystal structure of the epsilon/zeta TA complex from S. pyogenes bound to UNAG | – | – |
| Nc1ncnc2c1ncn2[C@@H]1O[C@H](COP(=O)(O)OP(=O)(O)OP(=O)(O)O)[C@@H](O)[C@H]1O | – | zeta toxin from S. pyogenes can catalyze the same reaction as PezT and modifies UNAG | UNAG kinases that form UDP-N-acetylglucosamine-3′-phosphate (UNAG-3P) from UNAG using ATP |
